pIC50: −log10 of the molar value.
Target: Enoyl-[acyl-carrier-protein] reductase [NADPH] FabI (Staphylococcus aureus, UniProt Q6GI75)
Assay: Inhibition of Staphylococcus aureus ATCC 29213 FabI in the presence of NADH using crotonyl CoA as substrate by measuring NADH consumption rate

Chains of the proteins cited; added tags and fusions are not shown. Lines headed by an entry give the natural chain unless they say otherwise; changes in a name come on top.
UniProt Q6GI75: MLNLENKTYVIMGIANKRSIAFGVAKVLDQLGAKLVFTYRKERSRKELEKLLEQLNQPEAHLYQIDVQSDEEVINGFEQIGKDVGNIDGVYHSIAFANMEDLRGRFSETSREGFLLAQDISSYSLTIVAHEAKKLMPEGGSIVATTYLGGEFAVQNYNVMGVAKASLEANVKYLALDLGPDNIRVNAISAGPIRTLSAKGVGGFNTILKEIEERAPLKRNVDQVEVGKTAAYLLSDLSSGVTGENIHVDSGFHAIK

**Q.** How did the pIC50 turn out when `CC(C)CCC/C=C\CCCCCCCC(=O)O` was run?
**A.** The pIC50 was 4.80.

Reference: ChEMBL document CHEMBL5230110, “FabI (enoyl acyl carrier protein reductase) - A potential broad spectrum therapeutic target and its inhibitors” (Eur J Med Chem, 2020)
